Pooled drug test results. Numbers come from NIAID ChemDB, via PubChem.

Shared fields: toxicity to cultured cells; cells: HepG2.2.15; measure: CC50

CCn is the concentration with n% toxicity to the cells.

| smiles | method | result |
|---|---|---|
| [N-]=[N+]=N[C@H]1C[C@H](n2cc(Cl)c(=O)[nH]c2=O)O[C@@H]1CO | - | 332 µM |
| COC(=O)[C@]1(O)C[C@@H](O)[C@@H](O)[C@H](OC(=O)/C=C/c2ccc(O)c(O)c2)C1 | MTT | >1680 µM |
| Nc1nc(=O)c2ncn([C@@H]3O[C@H](CO)C[C@H]3O)c2c(=O)[nH]1 | - | >170 µM |
| Nc1nc(=O)n([C@@H]2CS[C@H](CO)O2)cc1F | - | 292 µM |
| COc1cc(/C=C/C(=O)[Se]c2ccccc2)ccc1O | MTT | >100 µM |
| [N-]=[N+]=N[C@H]1C[C@H](n2ccc(N)nc2=O)O[C@@H]1CO | - | 357 µM |
| COc1cc2ccc(=O)oc2cc1OC | MTT | 2890 µM |
| Nc1ccn([C@H]2CC[C@@H](CO)O2)c(=O)n1 | - | 493 µM |
| O=c1ccn([C@H]2C[C@H](F)[C@@H](CO)O2)c(=O)[nH]1 | - | 338 µM |
| COC(=O)[C@]1(O)C[C@H](OC(=O)/C=C/c2ccc(O)c(O)c2)[C@@H](O)[C@@H](O)C1 | MTT | 2920 µM |
| CC(C)(C)[N+](O)(CCc1c[nH]c2ccccc12)C(C)(C)C | MTT | >100 µM |
| Nc1nc(=O)c2ncn(COCCOCP)c2c(=O)[nH]1 | - | >100 µM |
| Cc1cn([C@@H]2O[C@H](CO)[C@@H](O)[C@@H]2F)c(=O)[nH]c1=O | - | 205 µM |
| O=c1cc(-c2ccc(O)c(-c3c(O)cc4oc(-c5ccc(O)cc5)cc(=O)c4c3O)c2)oc2cc(O)cc(O)c12 | - | >36 µM |
| O=C(/C=C/c1ccc(O)c(O)c1)OC1[C@@H](O)CC(O)(C(=O)O)C[C@@H]1O | MTT | >1580 µM |
| Nc1nc(=O)n([C@H]2C[C@H](F)[C@@H](CO)O2)cc1Cl | - | 338 µM |
| CC(=O)[C@]1(O)CC[C@@]2(O)[C@]1(C)[C@H](OC(=O)/C=C(\C)C(C)C)CC1[C@@]3(C)CC[C@H](OC(=O)CN(C)C)CC3=CC[C@]12O | - | 3.6 µM |
| O[N+](CCc1c[nH]c2ccccc12)(CC1CC1)CC1CC1 | MTT | >100 µM |
| O=C(CCc1ccccc1)[Se]c1ccccc1 | MTT | >100 µM |
| CC(=O)Oc1ccc([C@@H]2CC(=O)c3c(cc(OC(C)=O)c(-c4c(OC(C)=O)cc(OC(C)=O)c5c4O[C@H](c4ccc(OC(C)=O)cc4)CC5=O)c3OC(C)=O)O2)cc1 | - | 20 µM |
| CO[C@@H]1[C@H](OP(O)(=S)OC[C@H]2O[C@@H](n3cnc4c(N)ncnc43)C[C@@H]2O)[C@@H](CO)O[C@H]1n1ccc(=O)[nH]c1=O | - | >1000 µM |
| O=c1ccc2ccccc2[se]1 | MTT | >100 µM |
| O=c1[nH]c(=O)n([C@@H]2O[C@H](CO)[C@@H](O)[C@@H]2F)cc1I | - | 212 µM |
| O=C(O)c1ccccc1O | MTT | 4330 µM |
| C=CCc1cccc(Oc2cc(CC=C)cc(O)c2O)c1 | MTT | 180 µM |
| COC(C)c1ccc(O)c(O)c1 | MTT | 3070 µM |
| O=C(/C=C/c1ccccc1)[Se]c1ccccc1 | MTT | >100 µM |
| C[N+](C)(O)CCc1c[nH]c2ccc(O)cc12 | MTT | >25 µM |
| CC(=O)[C@]1(O)CC[C@@]2(O)[C@]1(C)[C@H](OC(=O)/C=C(\C)C(C)C)CC1[C@@]3(C)CC[C@H](OC(=O)/C=C/c4cccc(C(F)(F)F)c4)CC3=CC[C@]12O | MTT | >1270 µM |
| Nc1nc(=O)n([C@@H]2O[C@H](CO)[C@@H](O)[C@@H]2F)cc1I | - | 207 µM |
| O=C(/C=C/C=C/c1ccc([N+](=O)[O-])cc1)[Se]c1ccccc1 | MTT | >100 µM |
| CCNc1nc(=O)c2ncn([C@@H]3O[C@H](CO)[C@@H](O)[C@H]3O)c2c(=O)[nH]1 | - | >100 µM |
| C=C1CC[C@@H](O)[C@]2(C)CC[C@@H](C(C)C)[C@H](O)[C@@H]12 | MTT | 2080 µM |
| C[C@H]1O[C@@H](O[C@H]2CC[C@@]3(C)[C@@H](CC[C@]4(C)[C@@H]3C=C[C@]35OC[C@@]6(CCC(C)(C)C[C@H]63)[C@@H](O)C[C@]54C)[C@]2(C)CO)[C@H](O)[C@@H](O[C@@H]2O[C@H](CO)[C@@H](O)[C@H](O)[C@H]2O)[C@H]1O | - | >40 µg/mL |
| Cc1ccc(/C=C/C=C/C(=O)[Se]c2ccccc2)cc1 | MTT | >100 µM |
| CC(C)c1cc2c(cc1O)[C@@]1(C)CC[C@@H](O)C(C)(C)[C@@H]1CC2 | sulforhodamine | <20 µg/mL |
| COc1cc2oc(=O)ccc2cc1O | MTT | 1630 µM |
| O=c1[nH]cc(F)c(=O)[nH]1 | - | 10 µg/mL |
| O=C(/C=C/C=C/c1ccc(Br)cc1)[Se]c1ccccc1 | MTT | >100 µM |

Repeating the first 2 entries:

smiles	method	result
[N-]=[N+]=N[C@H]1C[C@H](n2cc(Cl)c(=O)[nH]c2=O)O[C@@H]1CO	-	332 µM
COC(=O)[C@]1(O)C[C@@H](O)[C@@H](O)[C@H](OC(=O)/C=C/c2ccc(O)c(O)c2)C1	MTT	>1680 µM

Neighbouring rows are from separate reports. Blank or dashed fields: not listed here.